Compound potency records, mixed from different reports. Data source: NIAID ChemDB in PubChem.

Shared fields: enzyme or target tests

Inhibition is in % at the dose shown (toxicity tests: loss of growth or viability). Neighbouring rows are from separate reports. Blank or dashed fields: not listed here. ICn: concentration for n% inhibition. a–b is a range or a potency band.

smiles | protein | method | strain or isolate | dose | species | measure | value
C[C@H](Cn1cnc2c(N)ncnc21)OCP(=O)(O)O | HBsAg | ELISA | HepG 2.2.15 |  | Hepatitis B virus | IC50 | >1740 µM
COc1ccc2ccccc2c1/C=N/NC(=O)c1ccc(O)c(O)c1 | RNase H | RNase H / substrate cleavage | gtD | 10 µM | Hepatitis B virus | inhibition | >43%
O=C(O)c1ccc2c(c1)nc(-c1ccc3nc(-c4cc(O)cc(O)c4)ccc3c1)n2C1CCCCC1 | NS5B polymerase |  |  | 33 µM | Hepatitis C virus | inhibition | 94.33%
CCOC(=O)c1sc(NC(=O)CSc2nnc(Cc3ccccc3)o2)c(C#N)c1C | RNase H | RNase H / substrate cleavage | gtH | 10 µM | Hepatitis B virus | inhibition | >43%
O=C(O)c1cc2nc(-c3ccc(C(F)(F)F)cc3)cc(-c3ccccc3OCc3ccccc3)n2n1 | RNA-dependent RNA polymerase |  |  |  | Hepatitis C virus | IC50 | 1–10 µM
O=C(O)c1ccc(-c2cccc(/C=N/NC(=O)c3cc(O)c(O)c(O)c3)c2)cc1 | RNase H | RNase H / substrate cleavage | gtD | 10 µM | Hepatitis B virus | inhibition | >43%
O=C(O)c1cc2nc(-c3cccc(Cl)c3)cc(-c3ccccc3OCc3ccccc3)n2n1 | RNA-dependent RNA polymerase |  |  |  | Hepatitis C virus | IC50 | 1–10 µM
CC[C@@H]1C[C@]1(NC(=O)[C@@H]1C[C@@H](Oc2cc(-c3ccccc3)nc3cc(OC)ccc23)CN1C(=O)[C@@H](NC(=O)OCCF)C(C)C)C(=O)NS(=O)(=O)C1CC1 | NS3/NS4A protease |  | BMS |  | Hepatitis C virus | IC50 | <0.05 µM
O=C(O)c1ccc(Cl)cc1NS(=O)(=O)c1cc(Cl)c(Cl)cc1Cl | HCV NS5B polymerase | nucleotide incorporation | gt 1 |  | Hepatitis C virus | IC50 | 11 µM
CC(=O)N[C@H](C(=O)N[C@@H](CCC(=O)O)C(=O)N[C@@H](CCC(=O)O)C(=O)N[C@@H](CS)C(=O)O)C1CCCCC1 | Nonstructural protein 3 NTPase/helicase |  |  | 16.7 µM | Hepatitis C virus | inhibition | 50%
O=C1CC(=O)OC(CCc2cccc(Cl)c2)(C2CCCC2)C1 | Nonstructural protein 5B |  |  |  | Hepatitis C virus | IC50 | 1–10 µM
O=C(O)CCC(=O)N[C@H](C(=O)N[C@@H](CCC(=O)O)C(=O)N[C@@H](CCC(=O)O)C(=O)N[C@@H](CS)C(=O)O)C1CCCCC1 | Nonstructural protein 3 NTPase/helicase |  |  | 16.7 µM | Hepatitis C virus | inhibition | 86%
C=C[C@@H]1C[C@]1(NC(=O)[C@@H]1C[C@@H](Oc2cc(-c3ccccc3)nc3cc(OC)ccc23)CN1C(=O)[C@@H](NC(=O)OCC(C)(C)C)C(C)(C)C)C(=O)NS(=O)(=O)C1CC1 | NS3/NS4A protease |  | BMS |  | Hepatitis C virus | IC50 | <0.05 µM
COC(=O)C1=C(C(=O)OC)C2N(CCCCCNC(=O)CCCCCNC(=O)CCCC3SCC4NC(=O)NC43)c3ccccc3[C@@]23CC(=O)N(Cc2ccccc2)C3=N1 | Core106 dimerization | AlphaScreen |  |  | Hepatitis C virus | IC50 | 3.7 µM
O=c1nc[nH]c(=O)c2c1ncn2[C@H]1O[C@@H](CO)[C@H](O)[C@@H]1O | Nonstructural protein 3 NTPase/helicase | helicase activity |  |  | Hepatitis C virus | IC50 | >500 µM
C=C[C@@H]1C[C@]1(NC(=O)[C@@H]1C[C@@H](Oc2cc(-c3ccccc3)nc3cc(OC)ccc23)CN1C(=O)[C@@H](NC(=O)C(F)(F)F)C(C)(C)C)C(=O)NS(=O)(=O)C1CC1 | NS3/NS4A protease |  | BMS |  | Hepatitis C virus | IC50 | <0.05 µM
O=C(NC(C(=O)O)C1CCCCC1)c1ccc2c(c1)nc(-c1ccc3nc(-c4ccccc4)cnc3c1)n2C1CCCCC1 | NS5B polymerase |  |  | 100 µM | Hepatitis C virus | inhibition | 98.12%
O=C(Nc1nn[nH]n1)c1cnn2c(C3CCCCC3)c(-c3ccc(OCc4ccccc4)cc3)cnc12 | RNA-dependent RNA polymerase |  |  |  | Hepatitis C virus | IC50 | 1–10 µM
COc1cc(CCC2(C3CCCC3)CC(O)=CC(=O)O2)ccc1O | Nonstructural protein 5B |  |  |  | Hepatitis C virus | IC50 | 1–10 µM
CC(C)[C@H](NC(=O)[C@@H](NC(=O)CCC(=O)O)C1CCCCC1)C(=O)N[C@@H](CCC(=O)O)C(=O)NC1(C(=O)O)CC1 | Nonstructural protein 3 NTPase/helicase |  |  |  | Hepatitis C virus | IC50 | >167 µM
O=C1OC(CCc2ccc(O)cc2)(C2CCCC2)CC(O)=C1Cl | Nonstructural protein 5B |  |  |  | Hepatitis C virus | IC50 | 10–50 µM
C=CCN1c2ccccc2[C@]23CC(=O)N(Cc4ccccc4)C2=NC(C(=O)OC)=C(C(=O)OC)C13 | Core106 dimerization | AlphaScreen |  |  | Hepatitis C virus | IC50 | 2.8 µM
COc1ccc2occ(-c3ccc4cc(-c5nc6cc(C(=O)O)ccc6n5C5CCCCC5)ccc4n3)c2c1 | NS5B polymerase |  |  | 33 µM | Hepatitis C virus | inhibition | 101%
O=C(O)c1cnn2c(-c3ccccc3)cc(=O)[nH]c12 | RNA-dependent RNA polymerase |  |  |  | Hepatitis C virus | IC50 | >10 µM
O=C(O)c1ccccc1NS(=O)(=O)c1cc(Cl)c(Cl)cc1Cl | HCV NS5B polymerase | nucleotide incorporation | gt 1 |  | Hepatitis C virus | IC50 | 26 µM
Cc1ccc(C(=O)NN2CCOCC2)c(Nc2ccc3[nH]ncc3c2)n1 | DNA polymerase |  |  |  | Hepatitis B virus | IC50 | <0.1 µg/mL
COc1cc(OC)c(CCC2(C3CCCC3)CC(O)=C(Sc3ccc(C(=O)O)cn3)C(=O)O2)cc1Cl | Nonstructural protein 5B |  |  |  | Hepatitis C virus | IC50 | <1 µM
CCC[C@]1(CC(=O)O)OCCc2c1[nH]c1c(C)ccc(C#N)c21 | NS5B polymerase |  | 207-248 genotype 1A |  | Hepatitis C virus | IC50 | 0.5 µM
CC(C)C(NC(=O)c1ccc2c(c1)nc(-c1ccc3nc(-c4ccccc4)cnc3c1)n2C1CCCCC1)C(=O)O | NS5B polymerase |  |  | 100 µM | Hepatitis C virus | inhibition | 97.78%
Cc1ccc(C(=O)Nc2cccnc2)c(Nc2ccc3[nH]ncc3c2)n1 | DNA polymerase |  |  |  | Hepatitis B virus | IC50 | 0.01 µg/mL
C=CCOCCC1(C2CCCC2)CC(O)=C(Sc2nc3nc(C)cc(C)n3n2)C(=O)O1 | Nonstructural protein 5B |  |  |  | Hepatitis C virus | IC50 | 10–50 µM
CCCC1(S(=O)(=O)NC(=O)[C@]2(NC(=O)[C@@H]3C[C@@H](Oc4cc(-c5ccccc5)nc5cc(OC)ccc45)CN3C(=O)[C@@H](NC(=O)OC(C)(C)C)C(C)(C)C)CC23CC3)CC1 | NS3/NS4A protease |  | BMS |  | Hepatitis C virus | IC50 | 0.05–0.5 µM
CC[C@H](C)[C@H](NC(=O)[C@@H](NC(=O)CCC(=O)O)C1CCCCC1)C(=O)N[C@@H](CC1CCCCC1)C(=O)NC1(C(=O)O)CC1 | Nonstructural protein 3 NTPase/helicase |  |  | 83.5 µM | Hepatitis C virus | inhibition | 38%
CC(C)(C#N)c1cccc(CCC2(C3CCCC3)CC(=O)CC(=O)O2)c1 | Nonstructural protein 5B |  |  |  | Hepatitis C virus | IC50 | 1–10 µM
COc1ccc2c(O[C@@H]3C[C@@H](C(=O)NC4(C(=O)NS(=O)(=O)C5CC5)CC45CCCC5)N(C(=O)[C@@H](NC(=O)OC(C)(C)C)C(C)(C)C)C3)cc(-c3ccccc3)nc2c1 | NS3/NS4A protease |  | BMS |  | Hepatitis C virus | IC50 | <5 µM
O=C(O)c1cc2nccc(-c3cccc(-c4ccccc4F)c3)n2n1 | RNA-dependent RNA polymerase |  |  |  | Hepatitis C virus | IC50 | >10 µM
COC(=O)c1ccc(-c2cnc3ccc4c(C(F)(F)F)cc(C(F)(F)F)nc4n23)cc1 | Envelope glycoprotein 2 | luciferase / reporter gene | JFH-1 |  | Hepatitis C virus | IC50 | 13.8 µM
Cc1cc(C)c(C#N)c(=N)o1 | RNase H | RNase H / substrate cleavage | gtH | 10 µM | Hepatitis B virus | inhibition | >43%
O=C(O)C1CCCN1C(=O)c1ccc2c(c1)nc(-c1ccc3nc(-c4ccccc4)ccc3c1)n2C1CCCCC1 | NS5B polymerase |  |  | 33 µM | Hepatitis C virus | inhibition | 49.99%
O=C(Nc1cnn2c(C3CCCCC3)c(-c3ccc(OCc4ccccc4)cc3)cnc12)c1ccccc1 | RNA-dependent RNA polymerase |  |  |  | Hepatitis C virus | IC50 | >10 µM
Cc1ccc(C(=O)NCCc2ccccn2)c(Nc2ccc3[nH]ncc3c2)n1 | DNA polymerase |  |  |  | Hepatitis B virus | IC50 | <0.1 µg/mL
C=C[C@@H]1C[C@]1(NC(=O)[C@@H]1C[C@@H](Oc2cc(-c3ccccc3)nc3cc(OC)ccc23)CN1C(=O)[C@@H](NC(=O)OC(C)(C)C)C(C)(C)C)C(=O)NS(=O)(=O)c1ccc(Cl)cc1 | NS3/NS4A protease |  | BMS |  | Hepatitis C virus | IC50 | <0.05 µM
CC(C)C[C@H](NC(=O)CCC(=O)O)C(=O)N[C@@H](CCC(=O)O)C(=O)N[C@@H](CCC(=O)O)C(=O)NC1(C(=O)O)CC1 | Nonstructural protein 3 NTPase/helicase |  |  |  | Hepatitis C virus | IC50 | >83.5 µM
C=C[C@H]1C[C@@]1(NC(=O)[C@@H]1C[C@@H](Oc2cc(-c3ccccc3)nc3cc(OC)ccc23)CN1C(=O)[C@@H](NC(=O)OC(C)(C)C)C(C)(C)C)C(=O)NS(=O)(=O)C1(Cc2ccncc2)CC1 | NS3/NS4A protease |  | BMS |  | Hepatitis C virus | IC50 | <0.05 µM
O=[N+]([O-])c1ccc(-c2cnc3ccc4c(C(F)(F)F)cc(C(F)(F)F)nc4n23)cc1 | Envelope glycoprotein 2 | luciferase / reporter gene | JFH-1 |  | Hepatitis C virus | IC50 | 8.2 µM
CC[C@@H]1C[C@]1(NC(=O)[C@@H]1C[C@@H](Oc2cc(-c3ccccc3)nc3cc(OC)ccc23)CN1C(=O)[C@H](CC1CCCCC1)NC(=O)OC(C)(C)C)C(=O)NS(=O)(=O)C(F)(F)F | NS3/NS4A protease |  | BMS |  | Hepatitis C virus | IC50 | <5 µM
Cc1nn(-c2ccccc2)c(C)c1-c1ccc2cc(-c3nc4cc(C(=O)O)ccc4n3C3CCCCC3)ccc2n1 | NS5B polymerase |  |  | 33 µM | Hepatitis C virus | inhibition | 99.74%
C=CC1CC1(NC(=O)[C@@H]1C[C@@H](Oc2cc(-c3ccccc3)nc3cc(OC)ccc23)CN1C(=O)[C@@H](NC(=O)OC(C)(C)C)C(C)C)C(=O)NS(=O)(=O)C1CC1 | NS3/NS4A protease |  | BMS |  | Hepatitis C virus | IC50 | <0.05 µM
O=C(O)c1cc2nc(-c3ccccc3)cc(-c3cccc(Cl)c3)n2n1 | RNA-dependent RNA polymerase |  |  |  | Hepatitis C virus | IC50 | >10 µM
COc1ccc(-c2cnc3ccc4c(C(F)(F)F)cc(C(F)(F)F)nc4n23)cc1 | Envelope glycoprotein 2 | luciferase / reporter gene | JFH-1 |  | Hepatitis C virus | IC50 | 10.3 µM
CNC(=O)c1c(-c2ccc(F)cc2)oc2cc(Br)c(OC)cc12 | Nonstructural protein 5B |  |  |  | Hepatitis C virus | IC50 | ≤0.5 µM
CC(=O)C1C(=O)CC(CCc2cccc(Cl)c2)(C2CCCC2)OC1=O | Nonstructural protein 5B |  |  |  | Hepatitis C virus | IC50 | 10–50 µM
COc1cc(O[C@@H]2C[C@@H](C(=O)NC3(C(=O)NS(=O)(=O)C4CC4)CC34CCC4)N(C(=O)[C@@H](NC(=O)OC(C)(C)C)C(C)C)C2)c2ccc(-c3ccccc3)cc2n1 | NS3/NS4A protease |  | BMS |  | Hepatitis C virus | IC50 | <5 µM
CC(C)C[C@H](NC(=O)[C@H](CCC(N)=O)NC(=O)[C@@H](NC(=O)CCC(=O)O)C1CCCCC1)C(=O)N[C@@H](CS)C(=O)O | Nonstructural protein 3 NTPase/helicase |  |  | 167 µM | Hepatitis C virus | inhibition | 97%
C=C[C@H]1C[C@@]1(NC(=O)[C@@H]1C[C@@H](Oc2cc(-c3ccccc3)nc3cc(OC)ccc23)CN1C(=O)[C@@H](NC(=O)OC(C)(C)C)C(C)(C)C)C(=O)NS(=O)(=O)C1(Cc2cc(C)on2)CC1 | NS3/NS4A protease |  | BMS |  | Hepatitis C virus | IC50 | <0.05 µM
COc1cc(O)c(-c2ccc3cc(-c4nc5cc(C(=O)O)ccc5n4C4CCCCC4)ccc3n2)c(OC)c1 | NS5B polymerase |  |  | 33 µM | Hepatitis C virus | inhibition | 102%
C/C(=C\CCC1=CC[C@H](C2=CC(=O)O[C@@H]2O)O[C@H]1O)CCC1C(C)CCCC1(C)C | NS3 ATPase activity |  |  |  | Hepatitis C virus | IC50 | 70 µM
O=C(O)c1ccc2c(c1)nc(-c1ccc3nc(-c4ccc(Cl)c(Cl)c4)ccc3c1)n2C1CCCCC1 | NS5B polymerase |  |  | 33 µM | Hepatitis C virus | inhibition | 98.94%
O=C(O)CCCC(=O)N[C@H](C(=O)N[C@@H](CCC(=O)O)C(=O)N[C@@H](CCC(=O)O)C(=O)N[C@@H](CS)C(=O)O)C1CCCCC1 | Nonstructural protein 3 NTPase/helicase |  |  | 167 µM | Hepatitis C virus | inhibition | 94%
FC(F)(F)c1cc(C(F)(F)F)c2ccc3nc(-c4nnco4)cn3c2n1 | Envelope glycoprotein 2 | luciferase / reporter gene | JFH-1 |  | Hepatitis C virus | IC50 | 0.18 µM
C=C[C@H]1C[C@@]1(NC(=O)[C@@H]1C[C@@H](Oc2cc(-c3ccccc3)nc3cc(OC)ccc23)CN1C(=O)[C@@H](NC(=O)OC(C)(C)C)C(C)(C)C)C(=O)NS(=O)(=O)C1(Cl)CC1 | NS3/NS4A protease |  | BMS |  | Hepatitis C virus | IC50 | <0.05 µM
CCC(C)[C@H](NC(=O)[C@@H](NC(=O)CCC(=O)O)C1CCCCC1)C(=O)N[C@@H](CCC(=O)O)C(=O)N[C@@H](CS)C(=O)O | Nonstructural protein 3 NTPase/helicase |  |  | 16.7 µM | Hepatitis C virus | inhibition | 48%